According to US8193167B2, “Pharmacologically active agents containing esterified phosphonates and methods for use thereof” (priority 2004, dated 2012):
Where a name gives a salt, the structure may show the parent alone.

What was measured:
HCMV strain AD-169 = test: Plaque reduction assay for antiviral activity, HCMV in HFF cells; format: cell-based; conditions: SI = CC50/EC50
MCMV strain Smith = test: Plaque reduction assay for antiviral activity, MCMV in MEF cells; format: cell-based; conditions: SI = CC50/EC50
Vaccinia Copenhagen = format: cell-based, vaccinia virus (VV)

SMILES	HCMV SI (HCMV strain AD-169)	MCMV SI (MCMV strain Smith)	Vaccinia Copenhagen SI (Vaccinia Copenhagen)
CCCCCCCCCCCCCCCCCCCCCCOP1(=O)COC(Cn2ccc(N)nc2=O)CO1 (mixture of isomers) [DC-cCDV, Docosyl Cyclic Cidofovir]	>3125	>36	
CCCCCCCCCCCCCCCCOP1(=O)COC(Cn2ccc(N)nc2=O)CO1 (mixture of isomers) [HD-cCDV, Hexadecyl Cyclic Cidofovir]	26.8	6638	
Nc1ccn(C[C@@H](CO)OCP(=O)(O)O)c(=O)n1 [CDV, Cidofovir, reference compound]	264	>7925	>10
CCCCCCCCCCCCCCCCCCCCCCOP(=O)([O-])COC(CO)Cn1ccc(N)nc1=O.[Na+] (stereo not drawn) [DC-CDV, Docosyl Cidofovir, Sodium Salt]	>26500	995	
CCCCCCCCCCCCOP(=O)(O)CO[C@H](CO)Cn1ccc(N)nc1=O [DD-CDV, Dodecyl Cidofovir, Sodium Salt]	>322	<10	
CCCCCCCCCCCCCCCCCCCCOP(=O)(O)CO[C@H](CO)Cn1ccc(N)nc1=O [EC-CDV, Eicosyl Cidofovir, Sodium Salt]	5500	7700	28
CCCCCCCCCCCCCCCCCCCCOP1(=O)CO[C@@H](Cn2ccc(N)nc2=O)CO1 (stereo partly drawn) [EC-cCDV, Eicosyl Cyclic Cidofovir]	7827	374	
CCCCCCCCCCCCCCCCOP(=O)([O-])COC(CO)Cn1ccc(N)nc1=O.[Na+] (stereo not drawn) [HD-CDV, Hexadecyl Cidofovir, Sodium Salt]	>31400	>7850	>51
CCCCCCCCOP(=O)(O)CO[C@H](CO)Cn1ccc(N)nc1=O [O-CDV, Octyl Cidofovir, Sodium Salt]	>19	<10	
CCCCCCCCCCCCCCCCCCCCCCCCOP(=O)(O)CO[C@H](CO)Cn1ccc(N)nc1=O [TC-CDV, Tetracosyl Cidofovir, Sodium Salt]	1670	>13	
CCCCCCCCCCCCCCCCCCCCCCCCOP1(=O)CO[C@@H](Cn2ccc(N)nc2=O)CO1 (stereo partly drawn) [TC-cCDV, Tetracosyl Cyclic Cidofovir]	>313	>43	
Nc1ccn(C[C@H]2COP(=O)(O)CO2)c(=O)n1 [cCDV, Cyclic Cidofovir, reference compound]	>107	>1439	
